Anti-infective test results gathered from many reports (values: NIAID ChemDB through PubChem).

Shared fields: toxicity to cultured cells; cells: PBMC; measure: CC50

CCn is the concentration with n% toxicity to the cells. An empty or dashed field is not shown. Rows are shuffled and stem from different studies.

{"SMILES": "Cc1cn([C@H]2C[C@H](N=[N+]=[N-])[C@@H](CO)O2)c(=O)[nH]c1=O", "result": ">100 µM"}
{"SMILES": "CSCSc1nc(Cc2cc(C)cc(C)c2)c(C(C)C)c(=O)[nH]1", "result": ">100 µM"}
{"SMILES": "C=C(C)[C@]12C[C@@H](COc3ccccc3)[C@@]34OC5(OC1[C@@H]3[C@@H]1O[C@]1(CO)[C@@H](O)[C@]1(O)[C@@H](Oc3ccccc3)[C@@H](C)[C@H]([C@H](C)CCCCC[C@@H]5O)[C@]14C)O2", "result": ">2.5 µM"}
{"SMILES": "Cc1cc(C)cc(Cn2c(=O)ccn(CCc3ccccc3)c2=O)c1", "result": "80 µM"}
{"SMILES": "CCCCC/C=C\\C/C=C\\C/C=C\\C/C=C\\CCCC(=O)NCCc1ccc(O)c(O)c1", "result": ">5 µM"}
{"SMILES": "CCO[C@H]1O[C@@H]2OC3(C)CC[C@H]4[C@H](C)CC[C@@H]([C@H]1C)[C@@]24OO3", "result": "30.9 µM"}
{"SMILES": "CCCCCc1ccc(C#Cc2cn(CC=C(CO)CO)c(=O)[nH]c2=O)cc1", "result": "3.4 µM"}
{"SMILES": "COc1c(C)c2c(c(O)c1C/C=C(\\C)CCC(=O)O)C(=O)OC2", "method": "MTT", "result": ">0.5 µM"}
{"SMILES": "Cc1ccc(-c2ccc3c(c2)C=C(C(=O)Nc2ccc(C[N+](C)(C)C4CCOCC4)cc2)CCC3)cc1", "result": ">20 µM"}
{"SMILES": "Cc1cn([C@H]2C[C@H](N=[N+]=[N-])[C@@H](CO)O2)c(=O)[nH]c1=O", "method": "MTS", "result": ">1 µM"}
{"SMILES": "Nc1nc2c(ncn2COCCO)c(=O)[nH]1", "result": ">100 µM"}
{"SMILES": "CC[C@@]1(O)C(=O)NCc2c1cc1n(c2=O)Cc2cc3ccccc3nc2-1", "method": "XTT", "result": ">40 µM"}
{"SMILES": "OC[C@@H]1CC[C@H](n2cnc3c(Cl)ncnc32)O1", "result": "100 µM"}
{"SMILES": "Cc1cccc(C)c1Cn1c(=O)ccn(CC#N)c1=O", "result": ">464 µM"}
{"SMILES": "Nc1ncnc2c1ncn2[C@H]1CC[C@@H](CO)O1", "result": "22 µM"}
{"SMILES": "CCCCCCCCCCCCCCCC(=O)OCC(CO)(CO)NC(=O)CNC(=O)CCCc1ccc(C(CCCl)CCCl)cc1", "result": "7.1 µM"}
{"SMILES": "COC(=O)c1cccc(Cn2ccc3ccc(-c4ccc5ccn(Cc6cccc(C(=O)O)c6)c5c4)cc32)c1", "method": "MTS", "result": "11.6 µM"}
{"SMILES": "CC(C)(C)NC(=O)[C@H]1N(C(=O)[C@@H](O)[C@H](Cc2ccccc2)NC(=O)[C@H](CC(N)=O)NC(=O)COc2cccc3ccccc23)CSC1(C)C", "result": "32 µM"}
{"SMILES": "CCOP(=O)(CO[C@H]1C[C@@H](n2cnc3c(N)nc(F)nc32)C(F)(F)C1)OCC", "result": ">100 µM"}
{"SMILES": "CCOCn1c([Se]c2ccccc2)cc(=O)[nH]c1=O", "result": ">100 µM"}
{"SMILES": "Cc1cn([C@H]2CC[C@@H](CO)O2)c(=O)[nH]c1=O", "result": ">100 µM"}
{"SMILES": "Cc1ccccc1Cn1c(=O)ccn(CC#N)c1=O", "result": ">490 µM"}
{"SMILES": "O=c1nc2oc(-c3ccccc3)cc2cn1COCCO", "result": ">100 µM"}
{"SMILES": "CC12C(=O)c3cccc(O)c3C(=O)C1CC13OC12C(=O)c1c(O)cccc1C3=O", "result": ">125 µg/mL"}
{"SMILES": "CCCCCCCCC#Cc1cn(COCCO)c(=O)[nH]c1=O", "result": "72.1 µM"}
{"SMILES": "Cc1ccc(-c2ccc3c(c2)C=C(C(=O)Nc2ccc(C[N+](C)(C)C4CCOCC4)cc2)CCC3)cc1", "result": ">20 µM"}
{"SMILES": "C[C@H]1CC(=O)c2c(O)cccc2[C@H]1O", "result": ">125 µg/mL"}
{"SMILES": "Cc1cc(C)cc(Cn2c(=O)ccn(Cc3c(F)cccc3F)c2=O)c1", "result": "326 µM"}
{"SMILES": "COC(=O)C(C)CNP(=O)(OC[C@@H]1CC[C@H](n2cc(C)c(=O)[nH]c2=O)O1)Oc1ccc(OC)cc1", "result": ">100 µM"}
{"SMILES": "Cc1cc(Cn2c(=O)ccn(Cc3c(F)cccc3F)c2=O)cc(C)n1", "result": "322 µM"}
{"SMILES": "CSCC[C@H](NC(=O)[C@H](Cc1ccccc1)NC(=O)CNC(=O)CNC(=O)[C@@H](N)Cc1ccc(O)cc1)C(=O)O", "result": "650 µg/mL"}
{"SMILES": "Cc1cc(C)cc(Cn2c(=O)c(C)cn(Cc3ccccc3)c2=O)c1", "result": "58 µM"}
{"SMILES": "C[C@@H]1CC[C@H]2[C@@H](C)CO[C@@H]3OC4(C)CC[C@@H]1[C@]32OO4", "result": ">100 µM"}
{"SMILES": "O=C(O)P(=O)(O)O", "result": ">640 µM"}
{"SMILES": "Nc1nc2c(ncn2[C@H]2CC[C@@H](CO)O2)c(=O)[nH]1", "result": ">100 µM"}
{"SMILES": "CSc1c(C)c(SC)n2ccncc12", "result": "54.8 µM"}
{"SMILES": "S=C(NCCN1CCCCC1)Nc1ccc(Br)cn1", "result": ">100 µM"}
{"SMILES": "CC1=CC(=O)c2c(ccc(-c3ccc4c(c3O)C(=O)C=C(C)C4=O)c2O)C1=O", "result": ">125 µg/mL"}
{"SMILES": "COC(=O)C(C)CNP(=O)(OC[C@@H]1CC[C@H](n2cc(C)c(=O)[nH]c2=O)O1)Oc1ccc(Br)cc1", "result": ">100 µM"}
{"SMILES": "COC(=O)[C@H](C)NP(=O)(OC[C@H]1C/C1=C/n1cnc2c(N)nc(N)nc21)Oc1ccccc1", "result": "13 µM"}
{"SMILES": "CCOP(=O)(CO[C@H]1C[C@@H](n2cnc3c(Cl)nc(N)nc32)C(F)(F)C1)OCC", "result": ">100 µM"}
{"SMILES": "CC(=O)OC[C@H]1O[C@@H](SCCOP(=O)(OCCS[C@@H]2O[C@H](CO)[C@@H](O)[C@H](O)[C@H]2O)OC[C@H]2O[C@@H](n3cc(C)c(=O)[nH]c3=O)C[C@@H]2N=[N+]=[N-])[C@H](OC(C)=O)[C@@H](OC(C)=O)[C@@H]1OC(C)=O", "result": ">10 µM"}
{"SMILES": "OC[C@@H]1CC[C@H](n2cnc3c(=S)nc[nH]c32)O1", "result": "100 µM"}
{"SMILES": "Cc1cn([C@H]2C[C@H](N=[N+]=[N-])[C@@H](CO)O2)c(=O)[nH]c1=O", "result": ">100 µM"}
{"SMILES": "CCNc1ncnc2c1ncn2[C@H]1CC[C@@H](CO)O1", "result": "100 µM"}
{"SMILES": "Nc1nc(NC2CC2)c2ncn([C@H]3C=C[C@@H](CO)C3)c2n1", "method": "MTT", "result": ">4 µM"}
{"SMILES": "C/C=C(/C)C(=O)O[C@H]1C(C)=C[C@]23C(=O)[C@@H](C=C(CO)[C@@H](O)[C@]12O)[C@H]1[C@@H](C[C@H]3C)C1(C)C", "method": "trypan blue", "result": ">0.025 µM"}
{"SMILES": "COC(=O)C(C)CNP(=O)(OC[C@@H]1CC[C@H](n2cc(C)c(=O)[nH]c2=O)O1)Oc1ccc(F)cc1", "result": ">100 µM"}
{"SMILES": "CC(=O)OC[C@H]1O[C@@H](SCCOP(=O)(OCS[C@@H]2O[C@H](COC(C)=O)[C@@H](OC(C)=O)[C@H](OC(C)=O)[C@H]2OC(C)=O)OC[C@H]2O[C@@H](n3cc(C)c(=O)[nH]c3=O)C[C@@H]2N=[N+]=[N-])[C@H](OC(C)=O)[C@@H](OC(C)=O)[C@@H]1OC(C)=O", "result": ">10 µM"}
{"SMILES": "CCOCn1c([Se]c2ccccc2)c(F)c(=O)[nH]c1=O", "result": ">100 µM"}
{"SMILES": "Cc1cn([C@H]2C[C@H](N=[N+]=[N-])[C@@H](COP(=O)(OCCS[C@@H]3O[C@H](CO)[C@@H](O)[C@H](O)[C@H]3O)OCCS[C@@H]3O[C@H](CO)[C@@H](O)[C@H](O)[C@H]3O)O2)c(=O)[nH]c1=O", "result": ">10 µM"}
{"SMILES": "CNc1ncnc2c1ncn2[C@@H]1O[C@H](CO)C[C@@H]1F", "result": "100 µM"}

7 of the rows above, restated:

SMILES	method	result
C/C=C(/C)C(=O)O[C@H]1C(C)=C[C@]23C(=O)[C@@H](C=C(CO)[C@@H](O)[C@]12O)[C@H]1[C@@H](C[C@H]3C)C1(C)C	trypan blue	>0.025 µM
CCCCC/C=C\C/C=C\C/C=C\C/C=C\CCCC(=O)NCCc1ccc(O)c(O)c1		>5 µM
CCCCCCCCCCCCCCCC(=O)OCC(CO)(CO)NC(=O)CNC(=O)CCCc1ccc(C(CCCl)CCCl)cc1		7.1 µM
C=C(C)[C@]12C[C@@H](COc3ccccc3)[C@@]34OC5(OC1[C@@H]3[C@@H]1O[C@]1(CO)[C@@H](O)[C@]1(O)[C@@H](Oc3ccccc3)[C@@H](C)[C@H]([C@H](C)CCCCC[C@@H]5O)[C@]14C)O2		>2.5 µM
C[C@@H]1CC[C@H]2[C@@H](C)CO[C@@H]3OC4(C)CC[C@@H]1[C@]32OO4		>100 µM
CCOP(=O)(CO[C@H]1C[C@@H](n2cnc3c(N)nc(F)nc32)C(F)(F)C1)OCC		>100 µM
O=c1nc2oc(-c3ccccc3)cc2cn1COCCO		>100 µM